A mixed list of measured activities; the numbers were collected in NIAID ChemDB.

Common to all: growth or infection tests; agent: HIV-1

ECn is the concentration giving n% inhibition of infection, replication or growth. An empty or dashed field is not shown. Lines come from different laboratories, so protocols vary. Two numbers with a dash give a range or band.

| smiles | strain or isolate | cell line | changes | read by | read-out | value |
|---|---|---|---|---|---|---|
| CC(C)C1=C2[C@H]3CC[C@@H]4[C@@]5(C)CC[C@H](OC(=O)[C@H]6C[C@@H](C(=O)O)C6(C)C)C(C)(C)[C@@H]5CC[C@@]4(C)[C@]3(C)CC[C@@]2(CCN(CCN(C)C)Cc2cc(C(C)C)n[nH]2)CC1=O | 92HT599 | MT-2 |  | p24 / ELISA | EC50 | <1 µM |
| CC(C)CN(C[C@@H](O)[C@H](Cc1ccccc1)NC(=O)O[C@H]1CO[C@H]2OCC[C@H]21)S(=O)(=O)c1ccc2ncn(CCc3ccccc3)c2c1 | LAI WT | MT-4 |  | cytopathic effect / MTT | EC50 | 0.002 µM |
| COc1ncc(OC)c2c(C(=O)C(=O)N3CCN(C(=O)c4ccccc4)CC3)c[nH]c12 | RF | MT-2 |  | RT activity | EC50 | >2 µM |
| CCC1CN(C(=O)C(=O)c2c[nH]c3c(-c4cnccn4)ncc(OC)c23)CCN1C(=O)c1ccccn1 |  | HeLa |  | luciferase | EC50 | <1 µM |
| CC(C)C1=C2[C@H]3CC[C@@H]4[C@@]5(C)CC[C@H](OC(=O)[C@H]6C[C@@H](C(=O)O)C6(C)C)C(C)(C)[C@@H]5CC[C@@]4(C)[C@]3(C)CC[C@@]2([C@@H](O)CN[C@H](C)c2ccccc2)CC1=O | 92HT599 | MT-2 |  | p24 / ELISA | EC50 | <1 µM |
| CC(C)[C@H](NC(=O)[C@@H](N)Cc1ccccc1)C(=O)N[C@@H](Cc1ccccc1)[C@@H](O)[C@H](O)[C@H](Cc1ccccc1)NC(=O)[C@@H](NC(=O)[C@@H](N)Cc1ccccc1)C(C)C | D34 | PBLC |  | p24 | EC50 | >25 µM |
| CC(=O)Nc1sccc1S(=O)(=O)c1ccccc1[N+](=O)[O-] | IIIB | CEM + CEM/O |  | cytopathic effect / MTT | EC50 | >1.6 µg/mL |
| COc1cc2c(cc1Cc1cccc(Cl)c1F)c(=O)c(C(=O)O)cn2[C@H](CO)C(C)C | NL4-3 | PM1 | Wild type | RT activity | EC50 | 0.0012 µM |
| COc1ccc(C(=O)Nc2nc3ccc(S(=O)(=O)N(CC(C)C)C[C@@H](O)[C@H](Cc4ccccc4)NC(=O)COc4c(C)cccc4C)cc3[nH]2)cc1 | LAI WT | MT-4 |  | cytopathic effect / MTT | EC50 | 0.126 µM |
| O=C(Nc1sccc1S(=O)(=O)c1ccccc1)C(F)(F)F | IIIB | CEM + CEM/O |  | cytopathic effect / MTT | EC50 | >8 µg/mL |
| CC(C)[C@H](NC(=O)[C@@H](CC(=O)O)Cc1ccccc1)C(=O)N[C@@H](Cc1ccccc1)[C@@H](O)[C@H](O)[C@H](Cc1ccccc1)NC(=O)[C@@H](NC(=O)[C@@H](CC(=O)O)Cc1ccccc1)C(C)C | D34 | PBLC |  | p24 | EC50 | >25 µM |
| Cc1cccc(C)c1OCC(=O)N[C@@H](Cc1ccccc1)[C@H](O)CN(CC(C)C)S(=O)(=O)c1ccc2nc(N)[nH]c2c1 | LAI WT | MT-4 |  | cytopathic effect / MTT | EC50 | 0.316 µM |
| Nc1sccc1S(=O)(=O)c1ccccc1[N+](=O)[O-] | IIIB | CEM + CEM/O |  | cytopathic effect / MTT | EC50 | 3.83 µg/mL |
| COc1cc(OC)cc(C(=O)OCc2nc3ccccc3nc2C)c1 | BaL | PBMC |  | RT activity | EC90 | >100 µM |
| CC(C)[C@H](NC(=O)[C@@H](O)Cc1ccccc1)C(=O)N[C@@H](Cc1ccccc1)[C@@H](O)[C@H](O)[C@H](Cc1ccccc1)NC(=O)[C@@H](NC(=O)[C@@H](O)Cc1ccccc1)C(C)C | D34 | PBLC |  | p24 | EC50 | 0.1 µM |
| Cc1nc2ccccc2nc1COC(=O)c1ccc(O)cc1O | 89BZ167 | PBMC |  | RT activity | EC50 | >100 µM |
| COc1cnc(-n2nccc2CO)c2[nH]cc(C(=O)C(=O)N3CCN(C(=O)c4ccccc4)[C@H](C)C3)c12 |  | HeLa |  | luciferase | EC50 | <1 µM |
| Cc1nc2ccccc2nc1COC(=O)c1ccc(O)cc1 | 89BZ167 | PBMC |  | RT activity | EC90 | >100 µM |
| CC(C)[C@H](NC(=O)[C@H](Cc1ccccc1)NS(C)(=O)=O)C(=O)N[C@@H](Cc1ccccc1)[C@@H](O)[C@H](O)[C@H](Cc1ccccc1)NC(=O)[C@@H](NC(=O)[C@H](Cc1ccccc1)NS(C)(=O)=O)C(C)C | D34 | PBLC |  | p24 | EC50 | 0.5 µM |
| Cc1nc2ccccc2c(-c2ccc(Cl)cc2)c1[C@H](OC(C)(C)C)C(=O)O |  | PBMC |  |  | EC50 | 0.287 µM |
| COc1cnc(-n2cnc(NCc3ccccn3)n2)c2[nH]cc(C(=O)C(=O)N3CCN(C(=O)c4ccccc4)[C@H](C)C3)c12 |  | HeLa |  | luciferase | EC50 | <1 µM |
| CC(C)[C@H](NC(=O)CCS(=O)(=O)C(C)(C)C)C(=O)N[C@@H](Cc1ccccc1)[C@@H](O)[C@H](O)[C@H](Cc1ccccc1)NC(=O)[C@@H](NC(=O)CCS(=O)(=O)C(C)(C)C)C(C)C | D34 | PBLC |  | p24 | EC50 | 1 µM |
| COc1ccc(CNCC[C@@]23CC[C@]4(C)[C@H](CC[C@@H]5[C@@]6(C)CC[C@H](OC(=O)[C@H]7C[C@@H](C(=O)O)C7(C)C)C(C)(C)[C@@H]6CC[C@]54C)C2=C(C(C)C)C(=O)C3)cc1 | 92HT599 | MT-2 |  | p24 / ELISA | EC50 | <1 µM |
| COC(=O)c1ccc(C(=O)OCc2nc3ccccc3nc2C)cc1 | 89BZ167 | PBMC |  | RT activity | EC50 | >100 µM |
| CCCCCCCC/C=C\CCCCC(CCC(=O)O)NC1c2ccc3cc4c5c6c(cc7ccc8cc9cc1c1c9c9c8c7c6c9c6c1c2c3c56)C4 |  | PBMC |  | p24 | EC50 | 10 µM |
| CC(O)[C@H](NC(=O)[C@H](Cc1cccc2ccccc12)CS(=O)(=O)C(C)(C)C)C(=O)N[C@@H](Cc1ccccc1)[C@@H](O)[C@H](O)[C@H](Cc1ccccc1)NC(=O)[C@@H](NC(=O)[C@H](Cc1cccc2ccccc12)CS(=O)(=O)C(C)(C)C)C(C)O | D34 | PBLC |  | p24 | EC50 | 2 µM |
| COc1cnc(-c2cnccn2)c2[nH]cc(C(=O)C(=O)N3CCN(C(=O)c4ccccn4)C(C)C3)c12 |  | HeLa |  | luciferase | EC50 | <1 µM |
| O=C(O)CCCCCNC1c2ccc3cc4c5c6c(cc7ccc8cc9cc1c1c9c9c8c7c6c9c6c1c2c3c56)C4 |  | PBMC |  | p24 | EC50 | 0.49 µM |
| COc1ncc(OC)c2c(C(=O)C(=O)N3CCN(C(=O)c4ccccc4)C[C@H]3C)c[nH]c12 |  | HeLa |  | luciferase | EC50 | 0.0002–1 µM |
| CC(C)C1=C2[C@H]3CC[C@@H]4[C@@]5(C)CC[C@H](OC(=O)[C@H]6C[C@@H](C(=O)O)C6(C)C)C(C)(C)[C@@H]5CC[C@@]4(C)[C@]3(C)CC[C@@]2(CC(=O)NCC(C)(C)NC(=O)c2ccc(N3CCCCC3)cn2)CC1=O | 92HT599 | MT-2 |  | p24 / ELISA | EC50 | <1 µM |
| Cc1cc(C#CCCO)cc(C)c1Oc1ccnc(Nc2ccc(C#N)cc2)n1 | IIIB | MT-4 | Y181C | MTT | EC50 | 0.185 µM |
| COc1cnc(-n2cc(C)nn2)c2[nH]cc(C(=O)C(=O)N3CCN(C(=O)c4ccccc4)[C@H](C)C3)c12 |  | HeLa |  | luciferase | EC50 | ≤0.0002 µM |
| CC(C)C1=C2[C@H]3CC[C@@H]4[C@@]5(C)CC[C@H](OC(=O)[C@H]6C[C@@H](C(=O)O)C6(C)C)C(C)(C)[C@@H]5CC[C@@]4(C)[C@]3(C)CC[C@@]2(CCNCc2ccc(Cl)cc2OCCN2CCS(=O)(=O)CC2)CC1=O | 92HT599 | MT-2 |  | p24 / ELISA | EC50 | <1 µM |
| COc1ccc(C(=O)OCc2nc3ccccc3nc2C)c(OC)c1OC | BaL | PBMC |  | RT activity | EC50 | >100 µM |
| CC(C)CN(C[C@@H](O)[C@H](Cc1ccccc1)NC(=O)OC1COC2OCCC12)S(=O)(=O)c1ccc2nc(N)[nH]c2c1 | LAI WT | MT-4 |  | cytopathic effect / MTT | EC50 | 5.012 µM |
| CC(=O)Nc1sc([N+](=O)[O-])cc1S(=O)(=O)c1ccc(F)cc1 | IIIB | CEM + CEM/O |  | cytopathic effect / MTT | EC50 | 0.52 µg/mL |
| CC1CC(C)CN(S(=O)(=O)c2ccccc2[N+](=O)[O-])C1 | B-HXB2 | MT-4 |  | GFP / fluorescence | EC50 | 0.84 µM |
| CC(C)C1=C2[C@H]3CC[C@@H]4[C@@]5(C)CC[C@H](OC(=O)[C@H]6C[C@@H](C(=O)O)C6(C)C)C(C)(C)[C@@H]5CC[C@@]4(C)[C@]3(C)CC[C@@]2(CC(=O)NCc2ccc(N3CCS(=O)(=O)CC3)nc2)CC1=O | 92HT599 | MT-2 |  | p24 / ELISA | EC50 | <1 µM |
| Cc1nc2ccccc2nc1COC(=O)c1ccc2ccccc2c1O | BaL | PBMC |  | RT activity | EC90 | >100 µM |
| CN1c2ccccc2C2C1C=C(C#N)C(=O)N2c1ccc([N+](=O)[O-])cc1 | 83-2/B1-T20r | HeLa |  | GFP / fluorescence | EC50 | 0.03 µM |
| COc1cnc(-c2cncc(=O)[nH]2)c2[nH]cc(C(=O)C(=O)N3CCN(C(=O)c4ccccc4)CC3)c12 |  | HeLa |  | luciferase | EC50 | <1 µM |

For reference, 4 entries again:

smiles	strain or isolate	cell line	changes	read by	read-out	value
CC(=O)Nc1sccc1S(=O)(=O)c1ccccc1[N+](=O)[O-]	IIIB	CEM + CEM/O		cytopathic effect / MTT	EC50	>1.6 µg/mL
CC(C)[C@H](NC(=O)CCS(=O)(=O)C(C)(C)C)C(=O)N[C@@H](Cc1ccccc1)[C@@H](O)[C@H](O)[C@H](Cc1ccccc1)NC(=O)[C@@H](NC(=O)CCS(=O)(=O)C(C)(C)C)C(C)C	D34	PBLC		p24	EC50	1 µM
Cc1nc2ccccc2c(-c2ccc(Cl)cc2)c1[C@H](OC(C)(C)C)C(=O)O		PBMC			EC50	0.287 µM
COC(=O)c1ccc(C(=O)OCc2nc3ccccc3nc2C)cc1	89BZ167	PBMC		RT activity	EC50	>100 µM